Measurements from ChEMBL document CHEMBL4673334, “In Vivo Biological Evaluation of a Synthetic Royleanone Derivative as a Promising Fast-Acting Trypanocidal Agent by Inducing Mitochondrial-Dependent Necrosis” (J Nat Prod, 2020).

System: Trypanosoma cruzi
Assay: Inhibition of mitochondrial membrane potential in Trypanosoma cruzi MHOM/Pe/2011/Arequipa(DTU V) epimastigote form at IC25 concentration after 72 hrs by Rho (FITC-A) staining based flow cytometric analysis
Type: functional

Q: Which inhibition does the source give for `[C-]#N.[K+]` here?
A: Its inhibition is 95.1%.
